Experimental data: PubChem BioAssay AID624099 (ICCB-Longwood, 2012)

- Test: 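Human genes that papillomavirus E2 requires to repress the HPV18 LCR promoter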 (primary screen)
- Cells: human C33A cervical carcinoma cells (HPV-negative) stably expressing BPV1 E2 and an HPV18 LCR luciferase reporter
- Reagents: siRNA pool against human genes, 40 nM
- Timing: 72 h
- Detection: 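HPV18 LCR reporter light per well, converted to plate-wise z-scores that exclude control wells, and averaged over triplicate plates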
- Scale: mean z-score and z-score: higher = stronger reporter signal, weaker E2 silencing
- Rule for the call: 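Hit if mean z-score reaches 2 and two or more of three replicate z-scores also reach 2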
The whole screen tested about 21,000 reagents; this is a random part of them. 497 of them (2.4%) count as active. 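Higher z means weaker E2 silencing; only reporter increases were scored, and knock-downs that hurt cell survival may mask genuine repressor factors.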 Unmarked entries are inactive.

ZNF383 | mean z-score: 0.2; z-score, replicate A: 0.05; z-score, replicate B: 0.55; z-score, replicate C: 0
LRBA | mean z-score: 0.02; z-score, replicate A: 0.18; z-score, replicate B: -0.15; z-score, replicate C: 0.02
TTC32 | mean z-score: -0.17; z-score, replicate A: -0.34; z-score, replicate B: -0.23; z-score, replicate C: 0.06
GTPBP10 | mean z-score: 0.11; z-score, replicate A: -0.1; z-score, replicate B: 0.4; z-score, replicate C: 0.02
SPARC | mean z-score: -1.84; z-score, replicate A: -2.11; z-score, replicate B: -2.08; z-score, replicate C: -1.32
SULF2 | mean z-score: -1.02; z-score, replicate A: -1.57; z-score, replicate B: -0.93; z-score, replicate C: -0.56
CNTRL | mean z-score: 0.27; z-score, replicate A: 0.35; z-score, replicate B: 0.27; z-score, replicate C: 0.19
GSK3A | mean z-score: -2.87; z-score, replicate A: -2.74; z-score, replicate B: -2.73; z-score, replicate C: -3.14
CRB3 | mean z-score: 0.15; z-score, replicate A: 0.04; z-score, replicate B: 0.42; z-score, replicate C: 0
TMEM207 | mean z-score: 1.88; z-score, replicate A: 1.86; z-score, replicate B: 1.7; z-score, replicate C: 2.06
PTGIS | mean z-score: -0.18; z-score, replicate A: 0.71; z-score, replicate B: -0.62; z-score, replicate C: -0.64

Individual results from above:
For “mean z-score”, TTC32 shows -0.17
Under “mean z-score”, CRB3 shows 0.15

The listing continues:
TNFAIP1 | mean z-score: -0.08; z-score, replicate A: -0.18; z-score, replicate B: -0.03; z-score, replicate C: -0.03
USP25 | mean z-score: -1.24; z-score, replicate A: -1.22; z-score, replicate B: -1.14; z-score, replicate C: -1.34
C10orf120 | mean z-score: 0.35; z-score, replicate A: 0.22; z-score, replicate B: 0.23; z-score, replicate C: 0.59
PAQR3 | mean z-score: -0.92; z-score, replicate A: -0.69; z-score, replicate B: -1.19; z-score, replicate C: -0.89
FLJ10232 (retired record) | mean z-score: 0.61; z-score, replicate A: 1.07; z-score, replicate B: 1.18; z-score, replicate C: -0.43
MCRS1 | mean z-score: 1.73; z-score, replicate A: 1.86; z-score, replicate B: 1.5; z-score, replicate C: 1.84
PAQR9 | mean z-score: -3.1; z-score, replicate A: -3.13; z-score, replicate B: -3.65; z-score, replicate C: -2.52
HDLBP | mean z-score: -0.64; z-score, replicate A: -0.38; z-score, replicate B: -0.79; z-score, replicate C: -0.76
UPK1A | mean z-score: -0.38; z-score, replicate A: -0.29; z-score, replicate B: -0.49; z-score, replicate C: -0.35
PAK5 | mean z-score: -1.19; z-score, replicate A: -1.09; z-score, replicate B: -1.36; z-score, replicate C: -1.13
